We go through 32 substances from publication PMC8546149 (Nature Communications, 2021).

This series in a line: general procedure: Fmoc solid-phase peptide synthesis; SynPhase PSDRAM lanterns and Rink-amide resin; Wang resin for RhB-PB10; HCTU/DIEA; DIC/Oxyma for RhB-PB10. The following applies: for conjugation yield: conjugation step; for isolated yield: whole synthesis.

Marks after values point to notes of the source that are not given here.

In turn, Van-C(fNle-LFG-Tz) displayed a conjugation yield of 37%. In turn, Van-C(fM-Nle-FG-Tz) came in with a conjugation yield of 42%. In turn, fMLF-Leu-Pra-NH2 came in with an isolated yield of 25%*. Van-C(fMLFG-Tz) had a conjugation yield of 47%. Van-C(fMLF-Leu-Tz): the conjugation yield worked out at 47%. Regarding Van-C(fMLFG-(PEG3)2-Tz), the conjugation yield turned out to be 33%. Substance Van-C(fMLF-Pro-Tz) yielded a conjugation yield of 46%. Take Van-C(fML-Phe(4-F)-G-Tz): the conjugation yield was 47%.

The substance Van-V(fMLFG-(PEG3)2-Tz) returned a conjugation yield (cyclic, sequence written open) of 17%. Substance Van-C(fMLF-Lys-Tz) showed a conjugation yield of 44%. As for Van-V(fMLFG-PEG3-Tz), the conjugation yield (cyclic, sequence written open) came out at 30%.

Van-C(fML-Tyr-G-Tz) yielded a conjugation yield of 46%. Substance H-MLFG-Pra-NH2 displayed an isolated yield of 46%. Take fMLFG-Pra-NH2: the isolated yield worked out at 14%. The substance fMLF-Lys-Pra-NH2 returned an isolated yield of 40%. Van-C(fMLFG-PEG3-Tz) displayed a conjugation yield of 38%.

Substance fMLFG-(PEG3)3-Pra-NH2 returned an isolated yield of 15%.

Van-N(fMLFG-Tz) came in with a conjugation yield (cyclic, sequence written open) of 36%.

In turn, f-Nle-LFG-Pra-NH2 gave an isolated yield of 34%*. On the same count and under the same terms, as for fML-Phe(4-F)-G-Pra-NH2, the figure is 32%.

fMLF-Pro-Pra-NH2 yielded an isolated yield of 41%. Regarding Van-N(fMLFG-PEG3-Tz), the conjugation yield (cyclic, sequence written open) stood at 28%. In turn, fM-Cha-FG-Pra-NH2 showed an isolated yield of 31%*.

Van-C(H-MLFG-Tz) gave a conjugation yield of 45%.

The substance fML-Tyr-G- Pra-NH2 registered an isolated yield of 43%. As to Van-N(fMLFG-(PEG3)2-Tz), the conjugation yield (cyclic, sequence written open) is reported as 34%.

For fMLF-Lys(B*)-NH2, the conjugation yield turned out to be 84%. Substance fMLFG-PEG3-Pra-NH2 displayed an isolated yield of 13%. Van-C(fMLFG-PEG4-Tz) returned a conjugation yield of 42%. In turn, Van-C(fM-Cha-FG-Tz) gave a conjugation yield of 36%. The substance Van-V(fMLFG-Tz) gave a conjugation yield (cyclic, sequence written open) of 20%.

Substance fM-Nle-FG-Pra-NH2 registered an isolated yield of 34%*.
